From article PMC10881513, “Structure of the recombinant RNA polymerase from African Swine Fever Virus” (2024)

Target: ASFV RNA polymerase subunit vRPB1, African swine fever virus, strain BA71V, P42486 1-1450

ASFV RNA polymerase subunit vRPB5
result: binds

ASFV RNA polymerase subunit vRPB6
result: binds
